Measured values from several laboratories, pooled; numbers as filed in NIAID ChemDB.

Common to all: tests in culture; agent: Mycobacterium avium; endpoint: inhibition

Neighbouring rows are from separate reports.

{"structure": "CO[C@H]1/C=C/O[C@@]2(C)Oc3c(C)c(O)c4c(O)c(c5c(c4c3C2=O)NC2(CC[N+]([O-])(CC(C)C)CC2)N=5)=NC(=O)/C(C)=C\\C=C\\[C@H](C)[C@H](O)[C@@H](C)[C@@H](O)[C@@H](C)[C@H](OC(C)=O)[C@@H]1C", "dose": "0.4 µg/mL", "strain or isolate": "1581", "read by": "colony count", "value": "0%"}
{"structure": "Cc1nc2ccc(Cl)cn2c1C(=O)NCc1cc(F)c2c(c1)CCN(c1ccc(OC(F)(F)F)cc1)C2.Cl", "dose": "0.13 µM", "read by": "fluorescence", "value": "85%"}
{"structure": "CO[C@H]1/C=C/O[C@@]2(C)Oc3c(C)c(O)c4c(c3C2O)C2=NC3(CC[N+]([O-])(CC(C)C)CC3)N(C(C)=O)C2=C(NC(=O)/C(C)=C\\C=C\\[C@H](C)[C@H](O)[C@@H](C)[C@@H](O)[C@@H](C)[C@H](OC(C)=O)[C@@H]1C)C4=O", "dose": "0.4 µg/mL", "strain or isolate": "1581", "read by": "colony count", "value": "53%"}
{"structure": "O=c1[nH]c(=O)n([C@@H]2O[C@H](CO)[C@@H](O)[C@H]2F)cc1F", "dose": "50 µg/mL", "strain or isolate": "ATCC 25291", "value": "0%"}
{"structure": "CCc1cn([C@H]2C[C@H](I)[C@@H](CO)O2)c(=O)[nH]c1=O", "dose": "100 µg/mL", "strain or isolate": "ATCC 25291", "read by": "resazurin", "value": "0%"}
{"structure": "CCc1nc2cc(F)ccn2c1C(=O)NCc1ccc(C2CCN(c3ccc(C(C)(C)C)cc3)CC2)cc1F.Cl", "dose": "0.015 µM", "read by": "fluorescence", "value": "85%"}
{"structure": "CO[C@H]1/C=C/O[C@@]2(C)Oc3c(C)c(O)c4c(O)c(c5c(c4c3C2O)=NC2(CCN(CC(C)C)CC2)N=5)NC(=O)/C(C)=C\\C=C\\[C@H](C)[C@H](O)[C@@H](C)[C@@H](O)[C@@H](C)[C@H](OC(C)=O)[C@@H]1C", "dose": "0.4 µg/mL", "strain or isolate": "1581", "read by": "colony count", "value": ">99%"}
{"structure": "O=c1[nH]c(=O)n([C@@H]2O[C@H](CO)[C@@H](O)[C@H]2O)cc1/C=C/Br", "dose": "50 µg/mL", "strain or isolate": "ATCC 25291", "value": "0%"}
{"structure": "Cc1ccn2nc(C)c(C(=O)NCc3ccc(N4CCN(c5ccc(OC(F)(F)F)cc5)[C@H](C)C4)c(F)c3)c2c1.Cl", "dose": "0.1 µM", "read by": "fluorescence", "value": "85%"}
{"structure": "CC[C@H]1OC(=O)[C@H](C)[C@@H](O[C@H]2C[C@@](C)(OC)[C@@H](O)[C@H](C)O2)[C@H](C)[C@@H](O[C@@H]2O[C@H](C)C[C@H](N(C)C)[C@H]2O)[C@](C)(OC)C[C@@H](C)C(=O)[C@H](C)[C@@H](O)[C@]1(C)O", "dose": "6.25 µg/mL", "value": "98%"}
{"structure": "O=C1NC(=NCc2ccccc2)N/C1=C\\c1ccc(Cl)cc1", "dose": "12.5 µg/mL", "value": "42%"}
{"structure": "Cc1ccn2c(C(=O)NCc3cc(F)c(N4CCC(c5ccc(OC(F)(F)F)cc5)CC4)c(F)c3)c(C)nc2c1.Cl", "dose": "0.068 µM", "read by": "fluorescence", "value": "85%"}
{"structure": "Cc1cn([C@@H]2O[C@H](CO)[C@@H](O)[C@H]2F)c(=O)[nH]c1=O", "dose": "50 µg/mL", "strain or isolate": "ATCC 25291", "value": "0%"}
{"structure": "COc1ccn2nc(C)c(C(=O)NCc3cc(F)c(N4CCN(c5ccc(OC(F)(F)F)cc5)[C@@H](C)C4)c(F)c3)c2c1.Cl", "dose": "0.0068 µM", "read by": "fluorescence", "value": "85%"}
{"structure": "[N-]=[N+]=N[C@H]1C[C@H](n2cc(Br)c(=O)[nH]c2=O)O[C@@H]1CO", "dose": "100 µg/mL", "strain or isolate": "ATCC 25291", "read by": "resazurin", "value": "0%"}
{"structure": "O=C1NC(Nc2cccc(Cl)c2)=N/C1=C\\c1ccccc1Cl", "dose": "12.5 µg/mL", "value": "53%"}
{"structure": "CCc1nc2ccc(Cl)cn2c1C(=O)NCc1ccc(N2CCN(c3ccc(OC(F)(F)F)cc3F)[C@@H](CC)C2)c(F)c1.Cl", "dose": "0.023 µM", "read by": "fluorescence", "value": "85%"}
{"structure": "N#C/C(=C\\c1ccccc1)n1nnc2ccccc21", "dose": "12.5 µg/mL", "value": "93%"}
{"structure": "CO[C@H]1/C=C/O[C@@]2(C)Oc3c(C)c(O)c4c(O)c(c5c(c4c3C2=O)NC2(CCN(CC(C)C)CC2)N=5)=NC(=O)/C(C)=C\\C=C\\[C@H](C)[C@H](O)[C@@H](C)[C@@H](O)[C@@H](C)[C@H](OC(C)=O)[C@@H]1C", "dose": "0.4 µg/mL", "strain or isolate": "1581", "read by": "colony count", "value": ">99%"}
{"structure": "O=c1[nH]c(=O)n([C@H]2O[C@@H](CO)[C@H](O)[C@@H]2O)cc1Br", "dose": "50 µg/mL", "strain or isolate": "ATCC 25291", "value": "0%"}
{"structure": "O=C1NC(=Nc2ccc(Cl)cc2Cl)N/C1=C\\c1ccc(Cl)cc1Cl", "dose": "12.5 µg/mL", "value": "11%"}
{"structure": "Cc1cn([C@H]2C[C@H](N)[C@@H](CO)O2)c(=O)[nH]c1=O", "dose": "100 µg/mL", "strain or isolate": "ATCC 25291", "read by": "resazurin", "value": "0%"}
{"structure": "Cc1ccn2nc(C)c(C(=O)NCc3ccc(C4CCN(c5ccc(OC(F)(F)F)cc5)CC4)c(F)c3)c2c1.Cl", "dose": "0.066 µM", "read by": "fluorescence", "value": "85%"}
{"structure": "CCOC(=O)/C(N=Nc1ccc(C(=O)N/N=C/c2ccc([N+](=O)[O-])o2)cc1)=C(\\C)O", "dose": "12.5 µg/mL", "value": "16%"}
{"structure": "CCc1nc2ccc(Cl)cn2c1C(=O)NCc1ccc(N2CCN(c3ccc(OC(F)(F)F)cc3)[C@@H](C)C2)c(F)c1", "dose": "0.003 µM", "read by": "fluorescence", "value": "85%"}
{"structure": "Cc1cn([C@@H]2O[C@H](CO)[C@@H](O)[C@@H]2O)c(=O)[nH]c1=O", "dose": "50 µg/mL", "strain or isolate": "ATCC 25291", "value": "0%"}

The first 4 rows once more:

| structure | dose | strain or isolate | read by | value |
|---|---|---|---|---|
| CO[C@H]1/C=C/O[C@@]2(C)Oc3c(C)c(O)c4c(O)c(c5c(c4c3C2=O)NC2(CC[N+]([O-])(CC(C)C)CC2)N=5)=NC(=O)/C(C)=C\C=C\[C@H](C)[C@H](O)[C@@H](C)[C@@H](O)[C@@H](C)[C@H](OC(C)=O)[C@@H]1C | 0.4 µg/mL | 1581 | colony count | 0% |
| Cc1nc2ccc(Cl)cn2c1C(=O)NCc1cc(F)c2c(c1)CCN(c1ccc(OC(F)(F)F)cc1)C2.Cl | 0.13 µM |  | fluorescence | 85% |
| CO[C@H]1/C=C/O[C@@]2(C)Oc3c(C)c(O)c4c(c3C2O)C2=NC3(CC[N+]([O-])(CC(C)C)CC3)N(C(C)=O)C2=C(NC(=O)/C(C)=C\C=C\[C@H](C)[C@H](O)[C@@H](C)[C@@H](O)[C@@H](C)[C@H](OC(C)=O)[C@@H]1C)C4=O | 0.4 µg/mL | 1581 | colony count | 53% |
| O=c1[nH]c(=O)n([C@@H]2O[C@H](CO)[C@@H](O)[C@H]2F)cc1F | 50 µg/mL | ATCC 25291 |  | 0% |

Blank or dashed fields: not listed here. Percent inhibition refers to the dose given; in toxicity tests it is the harm to the cells.